Experimental findings from publication PMC10654105, “Deep mutational scanning of influenza A virus neuraminidase facilitates the identification of drug resistance mutations in vivo” (2023) are described below.

By UniProt entry, the sequences of proteins in these tests, tags left out. Where a name states a change or a piece, a line headed by the entry shows the natural chain unless it says otherwise.
UniProt P03470: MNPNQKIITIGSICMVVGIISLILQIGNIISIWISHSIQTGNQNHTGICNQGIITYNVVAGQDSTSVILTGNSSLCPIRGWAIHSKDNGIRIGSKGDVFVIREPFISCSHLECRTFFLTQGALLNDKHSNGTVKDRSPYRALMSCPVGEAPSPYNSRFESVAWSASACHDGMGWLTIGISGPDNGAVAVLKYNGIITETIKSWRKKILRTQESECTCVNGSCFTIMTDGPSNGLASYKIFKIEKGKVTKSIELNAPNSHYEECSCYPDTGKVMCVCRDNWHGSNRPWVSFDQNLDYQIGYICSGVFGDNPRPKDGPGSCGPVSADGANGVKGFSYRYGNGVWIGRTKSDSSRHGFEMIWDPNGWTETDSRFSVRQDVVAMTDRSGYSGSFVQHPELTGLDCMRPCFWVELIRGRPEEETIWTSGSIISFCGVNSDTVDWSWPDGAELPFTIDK

Assay [1] deals with WT virus (influenza A/WSN/33). In words: In vivo dose response of NAIs against WT virus in mice. Particulars: for IC90 dose: WT virus, OS orally, ZA intranasally, PE intramuscularly; for inhibition of WT virus replication: at IC90 dose.
Assay [2] deals with NA of influenza A/WSN/33 (H1N1) virus, WT (Influenza A virus, UniProt P03470). In words: Neuraminidase activity assay (MUNANA), WT recombinant virus. Particulars: read-out: IC50 (mean ± SD), three independent experiments.
Assay [3] relates to WT NA recombinant protein. Put plainly: Isothermal titration calorimetry, WT NA. The following applies: ITC.

With `CC(=O)N[C@H]1[C@H]([C@H](O)[C@H](O)CO)OC(C(=O)O)=C[C@@H]1N=C(N)N`, in assay [1], the IC90 dose came out at 0.1 mg/kg/day and the “inhibition of WT virus replication” value is reported as ~ 10 fold.
Consider `CCOC(=O)C1=C[C@@H](OC(CC)CC)[C@H](NC(C)=O)[C@@H](N)C1`, for which, in assay [1], the IC90 dose was 1 mg/kg/day and the “inhibition of WT virus replication” value was ~ 10 fold.
As a reminder, the IC50 is the concentration at which inhibition is half-maximal. A word on the Kd: it is the free concentration of one partner at which half of the binding sites on the other are occupied at equilibrium, for simple one-to-one binding. Consider peramivir, for which the IC50 in assay [2] worked out at 0.01 nM. Moreover, in assay [3], the “-TΔS” value is -8.27 kcal/mol, the ΔG was -9.3 kcal/mol and the ΔH is -1.03 ± 0.145 kcal/mol. For the same compound, the Kd in assay [3] (25°C, 20 mM MES pH 6.5, 200 mM NaCl) came out at 152 nM. Further, in assay [1], the IC90 dose came out at 1 mg/kg/day and the “inhibition of WT virus replication” value is given as ~ 10 fold.
